# Sequence variants of PSTVd stem 15 after infection

Reference: Wu et al. 2024, doi:10.1371/journal.ppat.1012142.

PSTVd intermediate strain, stem 15: wild type CUGGAGCGAUCGCUUCGG, pool pattern CUGGAGCGAUNGNNUNNG; upper and lower strand joined, each 5' to 3', the first 9 letters being the upper strand.

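Three N. benthamiana plants were inoculated with the whole mutant pool. Progeny were sequenced from the inoculated region (day 5), the margin of the inoculated leaf (day 10) and systemic leaves (day 12).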

Values are reads per thousand in the sample; higher means more abundant, 0 means not found. Each value is the mean of three plants. "Pool" is the share in the plasmid pool used as inoculum, on the same scale. The inoculated region was read from the minus strand, the other sites from the plus strand. Sequences that differ at fixed positions probably stem from PCR or sequencing errors, and defective variants can be carried along by functional ones. With 36,693-63,082 reads a sample, very low values are single reads. For reference, wild type rose from 10.2 per thousand in the pool to 285, 367, 312 (inoculated region), 785, 865, 782 (leaf margin) and 854, 898, 915 (systemic leaves).

CUGGAGCGAUGGGUUGAG (pool 1.05) gave inoculated region 0.271; leaf margin 0.0276; systemic leaves 0.
CUGGAGCGAUGGACUAGG (pool 1.36) gave inoculated region 0.599; leaf margin 0.0320; systemic leaves 0.00664.
CUGGAGCGAUAGCCUCUG (pool 0.873) gave inoculated region 0.278; leaf margin 0.0282; systemic leaves 0.
CUGGAGCGAUAGACUGAG (pool 1.07) gave inoculated region 1.37; leaf margin 0.0397; systemic leaves 0.
CUGGAGCGAUAGUUUCUG (pool 1.58) gave inoculated region 1.25; leaf margin 0.0435; systemic leaves 0.
CUGGAGCGAUAGCCUAGG (pool 0.986) gave inoculated region 0.274; leaf margin 0.0504; systemic leaves 0.
CUGGAGCGAUAGAGUAUG (pool 0.808) gave inoculated region 0.279; leaf margin 0.0371; systemic leaves 0.
CUGGAGCGAUUGUAUCUG (pool 0.840) gave inoculated region 0.254; leaf margin 0.0535; systemic leaves 0.
AUGGAGCGAUAGUGUCAG (pool 0.0162) gave inoculated region 0; leaf margin 0; systemic leaves 0.
AUGGAGCGAUAGGGUGGG (pool 0.0162) gave inoculated region 0; leaf margin 0; systemic leaves 0.
CUGGAGCGAUUGUUUCGG (pool 1.03) gave inoculated region 0.716; leaf margin 0.0466; systemic leaves 0.
CUGGAGCGAUCGCAUCGG (pool 0.937) gave inoculated region 0.583; leaf margin 0.292; systemic leaves 0.288.
CUGGAGCGAUAGUUUGGG (pool 0.743) gave inoculated region 0.293; leaf margin 0.0425; systemic leaves 0.
CUGGAGCGAUCGGAUAUG (pool 0.905) gave inoculated region 0.247; leaf margin 0.0282; systemic leaves 0.
CUGGAGCGAUAGUGUCCG (pool 0.695) gave inoculated region 0.332; leaf margin 0.0584; systemic leaves 0.
CUGGAGCGAUAGAUUACG (pool 1.87) gave inoculated region 0.989; leaf margin 0.0526; systemic leaves 0.
CUGGAGCGAUCGACUGGG (pool 0.711) gave inoculated region 0.209; leaf margin 0.0260; systemic leaves 0.
CUGGAUCGAUUGACUACG (pool 0.0162) gave inoculated region 0; leaf margin 0; systemic leaves 0.
CUGGAGCGAUAGCGUAAG (pool 1.03) gave inoculated region 0.269; leaf margin 0.0144; systemic leaves 0.
CGGGAGCGAUAGGCUAAG (pool 0.0162) gave inoculated region 0; leaf margin 0; systemic leaves 0.
CUGGAGCGAUGGAGUGUG (pool 0.824) gave inoculated region 0.293; leaf margin 0.0213; systemic leaves 0.
CUGGAGCGAUUGUCUCAG (pool 1.00) gave inoculated region 1.61; leaf margin 0.837; systemic leaves 0.575.
CUGGAGCGAUCGCCUAGG (pool 0.921) gave inoculated region 0.365; leaf margin 0.0707; systemic leaves 0.
CUGGAGCGAUCGCUUCGA (pool 0.0646) gave inoculated region 0.172; leaf margin 0.208; systemic leaves 0.288.
CUGGAGCGAUAGGAUUAG (pool 0.792) gave inoculated region 0.182; leaf margin 0.0303; systemic leaves 0.
CUGGAGCGAUCGUGUCGG (pool 1.02) gave inoculated region 0.344; leaf margin 0; systemic leaves 0.
CUGGAGCGAUGGAGUAUG (pool 0.743) gave inoculated region 0.247; leaf margin 0.0488; systemic leaves 0.
CUGGAGCGAUUGACUCAG (pool 0.792) gave inoculated region 1.39; leaf margin 0.0320; systemic leaves 0.
CCGGAGCGAUGGCCUACG (pool 0.0162) gave inoculated region 0; leaf margin 0; systemic leaves 0.
CUGGAGCGAUUGAGUAAG (pool 0.970) gave inoculated region 0.245; leaf margin 0.00908; systemic leaves 0.
CUGGAGCGAUCGAGUAUG (pool 0.937) gave inoculated region 0.289; leaf margin 0.0349; systemic leaves 0.
CUGGAGCGAUGGCCUCAG (pool 0.663) gave inoculated region 0.255; leaf margin 0.0265; systemic leaves 0.
CUGGAGCGAUGGUCUAUG (pool 0.986) gave inoculated region 0.295; leaf margin 0.0403; systemic leaves 0.
CUGGAGCGAUCGGCUAGG (pool 1.47) gave inoculated region 1.25; leaf margin 0.0419; systemic leaves 0.00664.
CUGGAGCGAUAGGUUUCG (pool 1.21) gave inoculated region 0.375; leaf margin 0.0235; systemic leaves 0.
CUGGAGCGAUCGGUUUUG (pool 0.760) gave inoculated region 0.281; leaf margin 0.0298; systemic leaves 0.
CUGGAGCGAUGGGUUUGG (pool 0.711) gave inoculated region 0.272; leaf margin 0.0594; systemic leaves 0.
CUGGAGCGAUAGGGUUCG (pool 0.921) gave inoculated region 0.232; leaf margin 0.0122; systemic leaves 0.
CUGGAGCGAUGGUAUGAG (pool 0.873) gave inoculated region 0.311; leaf margin 0.0235; systemic leaves 0.

4 of these entries, quoted again:

* CUGGAGCGAUAGUGUCCG (pool 0.695) = inoculated region 0.332; leaf margin 0.0584; systemic leaves 0
* CUGGAGCGAUAGCCUAGG (pool 0.986) = inoculated region 0.274; leaf margin 0.0504; systemic leaves 0
* CUGGAGCGAUUGAGUAAG (pool 0.970) = inoculated region 0.245; leaf margin 0.00908; systemic leaves 0
* CGGGAGCGAUAGGCUAAG (pool 0.0162) = inoculated region 0; leaf margin 0; systemic leaves 0